Laboratory results as given in publication doi:10.1101/2025.01.06.631558v1.

Tested on: CC(O)(C(=O)O)C(CC(=O)O)C(=O)O
Experiment: purified protein
Conditions: pH 7.5; 37.0 °C

Question: For (Coxiella burnetii RSA 493), which Km is on record?
Answer: 390 ± 47 µM
